Results on 1 compound are retold here after article PMC12664589 (Journal of Structural Biology: X, 2025).

The test has as its target CpNce103p (Candida parapsilosis, UniProt G8B6R8). Briefly: Stopped-flow CO2 hydration assay, inhibition of CpNce103p carbonic anhydrase. As to conditions: full-length CpNce103p (2.2 nM); 3.4 mM CO2; 20 mM HEPES-Na pH 7.5; 25 °C; 15 min preincubation. It is filed as biochemical.

For the compound `O=[N+]([O-])c1ccccc1[N+](=O)[O-]`, the inhibition constant (Ki) (commonly the equilibrium dissociation constant of an inhibitor or competing ligand from its target) was determined as 153 µM.
